Pooled drug test results. Numbers come from NIAID ChemDB, via PubChem.

Shared fields: whole-cell or culture tests; species: HIV-1; read by: cytopathic effect / MTT; endpoint: fold resistance

Blank or dashed fields: not listed here. Rows are shuffled and stem from different studies. Fold resistance has wild type as its base.

structure,mutations,strain,cell line,value
CC(C)=CCN1Cc2cccc3[nH]c(=S)n(c23)C[C@@H]1C,RT-L100I,TIBO-resistant L100I (RT-L100I),MT-4,262
CC(=O)Nc1cccc2c1nc(-c1c(F)cccc1F)n2Cc1c(F)cccc1F,RT-K101E,-,MT-4,>12.5
O=C1c2ccccc2C(=O)N1CCOC(=S)N(C(=O)c1cccs1)c1ccc(Cl)cc1,RT-K103N Y181C,A17,MT-4,>12500
COc1ccc2c(c1)N(C(=O)OC(C)C)[C@@H](CSC)C(=S)N2,RT-A98S,Recombinant mutant,MT-4,0.3
O=C(Oc1nsnc1-c1c(Cl)cccc1Cl)N1CCCCC1,RT-Y181C,IIIB-R (RT-Y181C),MT-4,>230
Nc1nc(NC2CC2)c2ncn([C@H]3C=C[C@@H](CO)O3)c2n1,RT-K65R,BRU PITT.(RT-K65R),PBMC,4
CN(C)C(=O)Oc1nsnc1-c1cc(Cl)ccc1Cl,RT-Y181C,IIIB-R (RT-Y181C),MT-4,>300
CC(C)c1c(COC(N)=O)cn(Cc2ccncc2)c1Sc1cc(Cl)cc(Cl)c1,RT-K103N,-,-,<100
CCc1cccc2c1nc(-c1c(F)cccc1F)n2Cc1c(F)cccc1F,RT-K101E,-,MT-4,17.1
Cc1ccnc2c1NC(=O)c1cccnc1N2C1CC1,RT-Y188L,1506-RS (RT-Y188L),MT-4,>588
CCN(CC)C(=O)Oc1nsnc1-c1c(Cl)cccc1Cl,RT-Y181C,IIIB-R (RT-Y181C),MT-4,37.6
Cc1cn([C@H]2C[C@H](N=[N+]=[N-])[C@@H](CO)O2)c(=O)[nH]c1=O,RT-K103N Y181C,A17,MT-4,0.4
CCOCn1c(Cc2ccccc2)c(C(C)C)c(=O)[nH]c1=O,RT-K101E,-,MT-4,15.7
CC(C)=CCN1Cc2cc(Cl)cc3[nH]c(=S)n(c23)C[C@@H]1C,RT-A98S E138A,Recombinant mutant,MT-4,2.3
CC(=O)Oc1ccc(/C=C/C(=O)O[C@H](C(=O)O)[C@H](OC(=O)/C=C/c2ccc(OC(C)=O)c(OC(C)=O)c2)C(=O)O)cc1OC(C)=O,DS-resistant,NL4-3,MT-4,>12
CC(=O)Nc1cccc2c1nc(-c1c(F)cccc1F)n2Cc1c(F)cccc1F,RT-K103N,-,MT-4,>12.5
O=C1c2ccccc2C(=O)N1CCOC(=S)N(C(=O)c1ccccc1)c1ccc(Cl)cc1,RT-Y181C,N119 nevirapine-resistant (RT Y181C),MT-4,>1000
Fc1cccc(F)c1Cn1c(-c2c(F)cccc2F)nc2c(Br)cccc21,RT-L100I,-,MT-4,0.6
Nc1cccc2c1nc(-c1c(F)cccc1F)n2Cc1c(F)cccc1F,RT-L100I,-,MT-4,0.6
CCc1c(C)[nH]c(=O)c(N(C)C)c1C(=O)c1cccc(/C=C\C#N)c1,RT-Y181C,-,MT-4,3.25
CN(C)C(=O)Oc1nsnc1-c1ccc(Cl)cc1Cl,RT-Y181C,IIIB-R (RT-Y181C),MT-4,>9.28
O=C1c2ccccc2C(=O)N1CCOC(=S)N(C(=O)c1cccnc1Cl)c1ccc(Cl)cc1,RT-K103R V179D P225H,IIIB,MT-4,>20000
Nc1ccn([C@H]2CC[C@@H](CO)O2)c(=O)n1,RT-E138A,Recombinant mutant,MT-4,0.6
CCc1c(C)[nH]c(=O)c(N(C)C)c1C(=O)c1cccc(/C=C/C#N)c1,RT-L100I K103N,-,MT-4,25
Nc1cccc2c1nc(-c1c(F)cccc1F)n2Cc1c(F)cccc1F,RT-L100I,-,MT-4,0.6
COC(=O)c1cccc2c1nc(-c1c(F)cccc1F)n2Cc1c(F)cccc1F,RT-Y181C,-,MT-4,16.8
Cc1cn([C@@H]2O[C@H](CO[Si](C)(C)C(C)(C)C)C3(OS(=O)(=O)C=C3N)[C@H]2O[Si](C)(C)C(C)(C)C)c(=O)n(C)c1=O,RT-A98S E138A,Recombinant mutant,MT-4,5.7
CC(C)c1c(CO)cn(Cc2ccncc2)c1Sc1cc(Cl)cc(Cl)c1,RT-K103N,-,-,<76.7
Fc1cccc(F)c1Cn1c(-c2c(F)cccc2F)nc2c(Br)cccc21,RT-K103N,-,MT-4,20.4
CCn1c(=O)c(C)cn([C@@H]2O[C@H](CO[Si](C)(C)C(C)(C)C)C3(OS(=O)(=O)C=C3N)[C@H]2O[Si](C)(C)C(C)(C)C)c1=O,RT-A98S E138A,Recombinant mutant,MT-4,15
CCc1c(C)[nH]c(=O)c(N(C)C)c1Cc1cccc(/C=C/C#N)c1,RT-K103N Y181C,-,MT-4,80
CN(C)C(=O)Oc1nsnc1-c1cccc(Cl)c1Cl,RT-Y181C,IIIB-R (RT-Y181C),MT-4,>135
O=C1c2ccccc2C(=O)N1CCOC(=S)N(C(=O)c1ccco1)c1ccc(Cl)cc1,RT-K103R V179D P225H,IIIB,MT-4,>14300

For reference, 4 entries again:

{"structure": "Nc1cccc2c1nc(-c1c(F)cccc1F)n2Cc1c(F)cccc1F", "mutations": "RT-L100I", "cell line": "MT-4", "value": "0.6"}
{"structure": "COc1ccc2c(c1)N(C(=O)OC(C)C)[C@@H](CSC)C(=S)N2", "mutations": "RT-A98S", "strain": "Recombinant mutant", "cell line": "MT-4", "value": "0.3"}
{"structure": "O=C1c2ccccc2C(=O)N1CCOC(=S)N(C(=O)c1ccco1)c1ccc(Cl)cc1", "mutations": "RT-K103R V179D P225H", "strain": "IIIB", "cell line": "MT-4", "value": ">14300"}
{"structure": "O=C1c2ccccc2C(=O)N1CCOC(=S)N(C(=O)c1cccs1)c1ccc(Cl)cc1", "mutations": "RT-K103N Y181C", "strain": "A17", "cell line": "MT-4", "value": ">12500"}